PubChem BioAssay AID624099, ICCB-Longwood | 2012
This is one part, drawn at random, of about 21,000 reagents tested. 497 of all reagents (2.4%) were called active. 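Higher z means weaker E2 silencing; only reporter increases were scored, and knock-downs that hurt cell survival may mask genuine repressor factors.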 The numbers tell different reagents against one gene apart.

Purpose: 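Host factors E2 relies on to silence an HPV18 LCR reporter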 (primary screen)
Cells: human C33A cervical carcinoma cells (HPV-negative) stably expressing BPV1 E2 and an HPV18 LCR luciferase reporter
Reagents: siRNA pool against human genes, 40 nM
Duration: 72 h
Detection: 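HPV18 LCR reporter light per well, converted to plate-wise z-scores that exclude control wells, and averaged over triplicate plates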
Reading the numbers: mean z-score and z-score: higher = stronger reporter signal, weaker E2 silencing
Hit rule: 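Mean z ≥ 2 together with z ≥ 2 in two or more of the three replicates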

| target | reagent no. | mean z-score | z-score, replicate A | z-score, replicate B | z-score, replicate C | outcome |
| --- | --- | --- | --- | --- | --- | --- |
| UBTFL7 (UBTF like 7 (pseudogene)) | 1 | 0.07 | 0.09 | -0.13 | 0.26 | inactive |
| ZNF678 (zinc finger protein 678) | 1 | 0.41 | 0.36 | 0.48 | 0.39 | inactive |
| ZNF678 (zinc finger protein 678) | 2 | 3.09 | 3.28 | 2.84 | 3.14 | active |
| KIAA0825 | 1 | -0.35 | -0.22 | -0.19 | -0.63 | inactive |
| KIAA0825 | 2 | 0.19 | 0.23 | 0.37 | -0.03 | inactive |
| KIAA0825 | 3 | 0.91 | 1.26 | 0.73 | 0.73 | inactive |
| SLC5A1 | 1 | -0.63 | -0.89 | -0.84 | -0.18 | inactive |
| TMPRSS4 (transmembrane serine protease 4) | 1 | -0.99 | -1.02 | -0.9 | -1.04 | inactive |
| YJU2B (YJU2 splicing factor homolog B) | 1 | 0.41 | 0.54 | 0.84 | -0.16 | inactive |
| HPSE2 (heparanase 2 (inactive)) | 1 | -0.23 | -0.34 | -0.43 | 0.08 | inactive |
| LTB (lymphotoxin beta) | 1 | 0.4 | 0.38 | 0.58 | 0.23 | inactive |
| RIOX1 (ribosomal oxygenase 1) | 1 | -0.28 | -0.52 | -0.49 | 0.16 | inactive |
| RRAS (RAS related) | 1 | 1.12 | 1.43 | 1.09 | 0.83 | inactive |
| DUBR (DPPA2 upstream binding RNA) | 1 | -1.19 | -1.27 | -0.86 | -1.45 | inactive |
| KCNE4 | 1 | -0.46 | -0.66 | -0.44 | -0.28 | inactive |
| HBA2 (hemoglobin subunit alpha 2) | 1 | -2.23 | -2.51 | -1.8 | -2.37 | inactive |
| PDXP (pyridoxal phosphatase) | 1 | -0.6 | -0.84 | -0.16 | -0.8 | inactive |
| PTDSS1 (phosphatidylserine synthase 1) | 1 | -0.13 | 0.01 | 0 | -0.42 | inactive |
| RPL26P32 (ribosomal protein L26 pseudogene 32) | 1 | -0.98 | -0.97 | -0.7 | -1.27 | inactive |
| MSRB2 (methionine sulfoxide reductase B2) | 1 | 0.39 | -0.09 | 0.51 | 0.74 | inactive |
| RANBP6 (RAN binding protein 6) | 1 | -0.4 | -0.61 | -0.06 | -0.52 | inactive |
| GPR179 (G protein-coupled receptor 179) | 1 | 1.94 | 1.62 | 2.33 | 1.88 | inactive |
| RPL13A (ribosomal protein L13a) | 1 | -2.49 | -2.24 | -2.5 | -2.71 | inactive |
| GPR31 (G protein-coupled receptor 31) | 1 | -0.43 | -0.18 | -0.71 | -0.4 | inactive |
| HYPK (huntingtin interacting protein K) | 1 | 2.44 | 2.14 | 2.77 | 2.41 | active |
| RIMS2 (regulating synaptic membrane exocytosis 2) | 1 | 0.87 | 0.89 | 0.98 | 0.74 | inactive |
| PTCD1 (pentatricopeptide repeat domain 1) | 1 | -1.29 | -1.53 | -1.46 | -0.89 | inactive |
| NT5C3B (5'-nucleotidase, cytosolic IIIB) | 1 | -0.15 | -0.38 | 0.02 | -0.09 | inactive |
| UVRAG (UV radiation resistance associated) | 1 | -0.32 | -0.13 | -0.36 | -0.48 | inactive |
| TMEM179 (transmembrane protein 179) | 1 | 0.3 | 0.13 | 0.4 | 0.38 | inactive |
| USP26 (ubiquitin specific peptidase 26) | 1 | 1.04 | 0.82 | 0.95 | 1.34 | inactive |
| TMEM80 (transmembrane protein 80) | 1 | -1.43 | -0.86 | -2.06 | -1.38 | inactive |
| LOC390683 (retired record) | 1 | 0.46 | 0.53 | 0.35 | 0.49 | inactive |
| PRLR (prolactin receptor) | 1 | -0.1 | -0.18 | 0 | -0.13 | inactive |
| LOC387765 (retired record) | 1 | -1.15 | -1.23 | -1.16 | -1.05 | inactive |
| IL17A (interleukin 17A) | 1 | 0.08 | 0.32 | -0.07 | -0.02 | inactive |
| FNDC11 (fibronectin type III domain containing 11) | 1 | -0.31 | -0.54 | -0.23 | -0.15 | inactive |
| PGGT1B (protein geranylgeranyltransferase type I subunit beta) | 1 | -1.67 | -1.8 | -1.96 | -1.26 | inactive |
| PCLAF (PCNA clamp associated factor) | 1 | 0.59 | 0.78 | 0.33 | 0.67 | inactive |
| KIR2DS4 | 1 | 1.41 | 1.45 | 1.12 | 1.65 | inactive |
| KRT16 (keratin 16) | 1 | 0.72 | 0.69 | 0.63 | 0.82 | inactive |
| CRHR2 (corticotropin releasing hormone receptor 2) | 1 | -0.23 | -0.42 | -0.27 | 0.01 | inactive |
| FAM111B (FAM111 trypsin like peptidase B) | 1 | -0.42 | -0.28 | -0.69 | -0.29 | inactive |
| CDC25A (cell division cycle 25A) | 1 | 0.56 | 0.49 | 0.52 | 0.67 | inactive |
| LSM6 | 1 | -0.93 | -1.13 | -0.8 | -0.86 | inactive |
| NR2F6 (nuclear receptor subfamily 2 group F member 6) | 1 | 1.58 | 1.68 | 1.28 | 1.78 | inactive |
| DTL (denticleless E3 ubiquitin protein ligase adapter) | 1 | 0.22 | 0.43 | 0.1 | 0.13 | inactive |
| ACTR2 (actin related protein 2) | 1 | 0.78 | 0.62 | 0.9 | 0.83 | inactive |
| GPR84 (G protein-coupled receptor 84) | 1 | -1.09 | -1.13 | -1 | -1.15 | inactive |
| LINC02877 (long independently transcribed non-coding RNA 2877) | 1 | 0 | 0.04 | -0.23 | 0.19 | inactive |
| PCDH17 (protocadherin 17) | 1 | -1.7 | -1.42 | -1.78 | -1.89 | inactive |
| GFRA1 (GDNF family receptor alpha 1) | 1 | 1.1 | 1.15 | 1.04 | 1.12 | inactive |
| ID3 (inhibitor of DNA binding 3) | 1 | -0.74 | -0.81 | -0.72 | -0.7 | inactive |
| MEPE (matrix extracellular phosphoglycoprotein) | 1 | -0.1 | -0.52 | 0.06 | 0.16 | inactive |
| SLC14A2-AS1 (SLC14A2 antisense RNA 1) | 1 | -0.74 | -0.81 | -0.6 | -0.81 | inactive |
| KHDRBS2 | 1 | -0.98 | -0.88 | -1.1 | -0.95 | inactive |
| XBP1 (X-box binding protein 1) | 1 | 1.28 | 1.25 | 1.4 | 1.2 | inactive |
| GRPEL2 (GrpE like 2, mitochondrial) | 1 | -0.23 | -0.08 | -0.46 | -0.16 | inactive |
| ZNF837 (zinc finger protein 837) | 1 | 1.01 | 1.11 | 1.02 | 0.9 | inactive |
| HNRNPA1P4 (heterogeneous nuclear ribonucleoprotein A1 pseudogene 4) | 1 | 1.82 | 1.33 | 1.67 | 2.47 | inactive |
| GLB1L (galactosidase beta 1 like) | 1 | 1.81 | 1.48 | 1.72 | 2.22 | inactive |
| LOC400782 (retired record) | 1 | 1.09 | 1.12 | 1.23 | 0.91 | inactive |
| SLC39A2 | 1 | -1.75 | -2 | -1.9 | -1.34 | inactive |
| ACTL7B (actin like 7B) | 1 | -0.3 | -0.38 | -0.34 | -0.17 | inactive |
| RBM15 (RNA binding motif protein 15) | 1 | 0.05 | -0.3 | 0.44 | 0.01 | inactive |
| SEPTIN8 (septin 8) | 1 | 0.34 | 0.43 | 0.33 | 0.26 | inactive |
| CCL8 (C-C motif chemokine ligand 8) | 1 | 1.17 | 1.01 | 1.59 | 0.91 | inactive |
| LOC401280 (retired record) | 1 | -0.5 | -0.63 | -0.4 | -0.48 | inactive |
| VAT1L (vesicle amine transport 1 like) | 1 | 0.45 | 0.58 | 0.81 | -0.04 | inactive |
| PROM1 (prominin 1) | 1 | 0.04 | 0.15 | -0.03 | 0 | inactive |
| PSME4 (proteasome activator subunit 4) | 1 | -0.18 | -0.11 | 0 | -0.43 | inactive |
| LIPJ (lipase family member J) | 1 | 0.29 | -0.11 | 0.67 | 0.3 | inactive |
| CCDC158 (coiled-coil domain containing 158) | 1 | -0.45 | -0.6 | -0.57 | -0.18 | inactive |

Reformatted: results already given.
target	reagent no.	mean z-score	z-score, replicate A	z-score, replicate B	z-score, replicate C	outcome
IL17A (interleukin 17A)	1	0.08	0.32	-0.07	-0.02	inactive
FNDC11 (fibronectin type III domain containing 11)	1	-0.31	-0.54	-0.23	-0.15	inactive
PGGT1B (protein geranylgeranyltransferase type I subunit beta)	1	-1.67	-1.8	-1.96	-1.26	inactive
PCLAF (PCNA clamp associated factor)	1	0.59	0.78	0.33	0.67	inactive
KIR2DS4	1	1.41	1.45	1.12	1.65	inactive
KRT16 (keratin 16)	1	0.72	0.69	0.63	0.82	inactive
CRHR2 (corticotropin releasing hormone receptor 2)	1	-0.23	-0.42	-0.27	0.01	inactive
FAM111B (FAM111 trypsin like peptidase B)	1	-0.42	-0.28	-0.69	-0.29	inactive
CDC25A (cell division cycle 25A)	1	0.56	0.49	0.52	0.67	inactive
LSM6	1	-0.93	-1.13	-0.8	-0.86	inactive
NR2F6 (nuclear receptor subfamily 2 group F member 6)	1	1.58	1.68	1.28	1.78	inactive
DTL (denticleless E3 ubiquitin protein ligase adapter)	1	0.22	0.43	0.1	0.13	inactive
